Results of unrelated studies side by side (data: NIAID ChemDB).

Shared fields: toxicity to cultured cells; cells: HEL; read-out: CC50

Conditions beyond the fields shown may differ between rows.

structure	value
Cc1ccccc1CSCc1cnc2c(Br)cc(Br)c(C)n12	>50 µg/mL
Cc1cc(-c2ccc(O)cc2)cn2c(CSCCc3ccccc3)cnc12	>50 µg/mL
CCCCCCCCCCc1cc2cn(C3CCCO3)c(=O)nc2o1	>200 µM
C[C@H](NC(=O)N1C(=O)C[C@]1(Cc1ccccc1)C(=O)OC(C)(C)C)c1ccccc1	164 µM
NC1=NS(=O)(=O)N(Cc2ccccc2)c2nc(Cc3ccccc3)[nH]c21	35 µg/mL
O=C(COc1cccc2ccccc12)NN=Cc1cccc([N+](=O)[O-])c1	61.2 µg/mL
CC#Cc1cn([C@@H]2O[C@H](CO)[C@@H](O)[C@@H]2O)c(=O)[nH]c1=O	709 µM
O=c1[nH]c(=O)n([C@H]2C[C@H](O)[C@@H](CO)O2)cc1C#CCCCCCCCCCCl	74 µM
O=c1[nH]c(=O)n([C@H]2C[C@H](O)[C@@H](CO)O2)cc1/C=C/Br	0.2 µg/mL
Cc1cccn2c(C3SCCS3)cnc12	122 µM
Cc1ccn2c(CSCc3ccccc3)c(C34CC5CC(CC(C5)C3)C4)nc2c1	10 µg/mL
C[C@H](NC(=O)N1C(=O)C[C@]1(Cc1ccccc1)C(=O)O)c1ccccc1	>200 µM
CN1c2ccccc2C(C)(C)C12C=Nc1c(ccc3ccccc13)O2	20.1 µM
CCCCCCCCc1cc2cn(CCC(C)C)c(=O)nc2o1	>200 µM
NC1=NS(=O)(=O)N(Cc2ccccc2)c2nc(-c3ccc(Cl)cc3)[nH]c21	30 µg/mL
Cc1ccn2c(CSCc3ccccc3)c(-c3ccco3)nc2c1	>50 µg/mL
CCCCc1cc2cn(CCC(C)C)c(=O)nc2o1	>200 µM
Cc1ccn2c(C(SCCc3ccccc3)SCCc3ccccc3)cnc2c1	36 µM
CN1c2ccc(Cl)cc2C(C)(C)C12C=Cc1cc([N+](=O)[O-])ccc1O2	8.9 µM
CCCCCCCc1cc2cn([C@H]3C[C@H](O)[C@@H](CO)O3)c(=O)nc2o1	>50 µM
O=c1[nH]c(=O)n([C@H]2C[C@H](O)[C@@H](CO)O2)cc1-c1ccc(Br)s1	321 µM
Cc1ccn2c(CSCc3ccccc3)c(-c3ccc4ccccc4c3)nc2c1	16 µg/mL
CCCCCCCCc1cc2cn([C@H]3C[C@H](O)[C@@H](CO)O3)c(=O)nc2[nH]1	>50 µM
O=C(COc1cccc2ccccc12)NN=Cc1cccc(Cl)c1	58.6 µg/mL
NC1=NC2C(C=CN2CC(CO)CCO)C(=O)N1	790 µM
CN1c2ccc(Cl)cc2C(C)(C)C12C=Nc1c(ccc3ccccc13)O2	107.5 µM
Cc1ccn2c(C3OCCS3)cnc2c1	>266 µM
CCCCCCc1cc2cn([C@H]3C[C@H](O)[C@@H](CO)O3)c(=O)nc2[nH]1	>50 µM
Cc1ccn2c(CSCc3ccccc3)c(C(C)(C)C)nc2c1	11 µg/mL
CNC1(C23CC4CC(CC(C4)C2)C3)CCCC1	≥100 µg/mL
Nc1nc(=O)n([C@@H]2O[C@H](CO)[C@@H](O)[C@@H]2F)cc1I	81 µM
C[C@@H](NC(=O)N1C(=O)C[C@]1(Cc1ccccc1)C(=O)O)c1ccccc1	>200 µM
CCN1CCCC1C12CC3CC(CC(C3)C1)C2	>50 µg/mL
O=C(COc1cccc2ccccc12)NN=Cc1ccccc1Cl	62.7 µg/mL
Cc1cc(Br)cn2c(CSCc3ccccc3)cnc12	>50 µg/mL
Nc1ccn(C[C@@H](CO)OCP(=O)(O)O)c(=O)n1	>250 µM
O=c1nc2oc(CCCCCCCCCCl)cc2cn1[C@H]1C[C@H](O)[C@@H](CO)O1	200 µM
CCCCCCc1cc2cnc(OC3CCCCC3)nc2o1	>50 µM
Nc1nc2c(ncn2COCCO)c(=O)[nH]1	888 µM
Cc1cccn2c(C3OCCO3)cnc12	>291 µM
C[C@@H](NC(=O)N1C(=O)C[C@@]1(Cc1ccccc1)C(=O)O)c1ccccc1	>200 µM
Cc1c(Br)cc(Br)c2ncc(CSCCc3ccccc3)n12	>50 µg/mL
O=C[C@H]1C[C@H](n2ccc(=O)[nH]c2=O)O[C@@H]1CO	0.1 µg/mL
Cc1ccn2c(CSCc3ccccc3)c(C(F)(F)F)nc2c1	>50 µg/mL
CCCCCCCc1cc2cn(C3CCCC3)c(=O)nc2o1	194 µM
O=C(O)P(=O)(O)O	>666 µM
C1CCC2(C1)CCCN2CC12CC3CC(CC(C3)C1)C2	200 µg/mL
Nc1nc2c(ncn2CCC(CO)CO)c(=O)[nH]1	>790 µM
Cc1ccn2c(CSCCc3ccccc3)c(-c3cccs3)nc2c1	14 µg/mL
COc1ccc(CSCc2cnc3c(Br)cc(Br)c(C)n23)cc1	>50 µg/mL
CC1(C)c2ccccc2N(c2ccccc2)C12C=Nc1c(ccc3ccccc13)O2	96.3 µM
Cc1cc(-c2ccccc2O)cn2c(CSCCc3ccccc3)cnc12	>50 µg/mL
CC(C)(C)C1CCCN1CC12CC3CC(CC(C3)C1)C2	>50 µg/mL
C[C@@H](NC(=O)N1C(=O)C[C@@]1(Cc1ccccc1)C(=O)OC(C)(C)C)c1ccccc1	70 µM
CCCCCCCCCCc1cc2cnc(OC3CCCCC3)nc2o1	>200 µM
N#C/C=C/[C@H]1O[C@@H](n2cnc3c(N)ncnc32)[C@H](O)[C@@H]1O	11 µg/mL
Nc1nc2c(ncn2CCC(CO)CO)c(=O)[nH]1	290 µg/mL
Cc1c(Br)cc(Br)c2ncc(CSCc3ccco3)n12	>50 µg/mL
Nc1nc(N)c2ncn(CCOCP(=O)(O)O)c2n1	129 µM
CC(=NNC(=O)COc1cccc2ccccc12)c1ccccc1Br	16.2 µg/mL
Cc1cc(-c2ccccc2)cn2c(CSCCc3ccccc3)cnc12	31 µg/mL
Cc1ccc(/C=N/NC(=O)COc2cccc3ccccc23)cc1	80.1 µg/mL
Cc1cc(-c2ccsc2)cn2c(CSCCc3ccccc3)cnc12	>50 µg/mL
O=c1[nH]c(=O)n([C@H]2C[C@H](O)[C@@H](CO)O2)cc1C#CCCCCCCCCCF	116 µM

CCn: concentration that lowers growth or viability of the cells by n%.